Results published in ChEMBL document CHEMBL1201862, “PubChem BioAssay data set” (2004).
The other results are listed elsewhere or left out. The calls are words filed in the database; no cut-off is given here. Only a part of the results of these assays is listed, not drawn at random.

biological target: Thioredoxin glutathione reductase (Schistosoma mansoni) (UniProt Q962Y6); experiment: qHTS Assay for the Inhibitors of Schistosoma Mansoni Peroxiredoxins. [Related pubchem assays: 1011 (Confirmation Concentration-Response Assay for Inhibitors of the Schistosoma mansoni Redox Cascade ), 448 (Schistosoma Mansoni Peroxiredoxins (Prx2) and thioredoxin glutathione reductase (TGR) coupled assay)]; type: functional

Row | SMILES | Potency
1 | CCc1nc2c([nH]1)c1no[n+]([O-])c1c1no[n+]([O-])c21 | active: 15.8 µM
